Assay results taken from patent US20220202929A1, “DRUG-RESISTANT INFLUENZA VIRUS STRAINS” (President and Fellows of Harvard College, priority 2019, published 2022).

Tested on: parent influenza A/WSN/33 (H1N1) strain
Experiment: microbe, parasite or virus in culture
Format: cell-based

Row | Structure (SMILES) | IC50 [nM]
1 | NC12CC3CC(CC(C3)C1)C2 [amantadine] | 47
2 | CCOC(=O)C1=C[C@@H](OC(CC)CC)[C@H](NC(C)=O)[C@@H](N)C1 [oseltamivir] | 58
